Values quoted from earlier work as cited in paper PMC4559355 (Journal of nuclear medicine : official publication, Society …, 2015).

What was measured:
[1] = system: DX3puroβ6 tumor (αvβ6-positive); conditions: mouse, in vivo, iv; cited from earlier work
[2] = mouse, in vivo; cited from earlier work

Substance	Uptake in DX3puroβ6 tumor [1]	Number of radioactive metabolites in urine [2]
^18F-FBA-PEG28-A20FMDV2 [compound 2]	0.5 ± 0.1 %ID/g	1
^18F-FBA-A20FMDV2 [compound 1]	–	3
